Reference: publication PMC4357719, “Roles of Rad51 paralogs for promoting homologous recombination in Leishmania infantum”
For at least one entry, the source does not settle the construct or the ends of the probe.

Tested on: LiRad51-3 (in 3-4-6 complex) + LiRad51-4 (in 3-4-6 complex) + LiRad51-6 (in 3-4-6 complex)
Test: competition EMSA
Settings: 0-40 nM complex, mixture; 25 mM MOPS pH 7.0, 0.2% Tween-20, 1 mM CaCl2, 2 mM DTT; 25 nM 32P-DNA; 37 C 10 min, then 0.2% glutaraldehyde 15 min; 8% TBE acrylamide gel; recombinant protein; label: 32P; single-stranded DNA

GGGTGAACCTGCAGGTGGGCAAAGATGTCCTAGCAATGTAATCGTCAAGCTTTATGCCGT [ssDNA of structure competition (JYM925, inferred)]
binding result: binds
